Assay results: article PMC5539350

Tested on: O=c1cc[nH]c(=O)[nH]1
Assay: cells, lysate or membranes

(Escherichia coli O157:H7)
Km: 0.57 ± 0.11 µM and 0.56 ± 0.10 µM

Several values for one entry are separate records, joined by “and”; a condition that tells them apart may be missing. Equal values may be shown once.
